Assay results from ChEMBL document CHEMBL1687745 (Antimicrob Agents Chemother, 2009).

Legend:
Yersinia pestis = assay: Bactericidal activity against pgm, pCD1 gene-deficient Yersinia pestis KIM assessed as reduction in bacterial CFU at 4 X MIC after 24 hrs by time-kill analysis relative to untreated control
Bacillus anthracis [1] = assay: Antimicrobial activity against Bacillus anthracis Sterne spores by broth microdilution method; type: functional
Bacillus anthracis [2] = assay: Antimicrobial activity against Bacillus anthracis Ames spores by broth microdilution method
Bacillus anthracis [3] = assay: Bactericidal activity against Bacillus anthracis Sterne vegetative forms assessed as reduction in bacterial CFU at 4 X MIC after 24 hrs by time-kill analysis relative to untreated control

SMILES | fold change (FC) (Yersinia pestis) | MIC (Bacillus anthracis [1]) | MIC (Bacillus anthracis [2]) | fold change (FC) (Bacillus anthracis [3]) | MBC (Bacillus anthracis [2])
c1cc2cc(-c3ccc(-c4cc5ccc(C6=NCCN6)cc5[nH]4)cc3)[nH]c2cc1C1=NCCN1 | >=3 | 0.2 µg/mL (≈ 0.45 µM) | 0.2 µg/mL (≈ 0.45 µM) | >=3 | 
C(=C\c1cc2ccc(C3=NCCN3)cc2[nH]1)/c1cc2ccc(C3=NCCN3)cc2[nH]1 | >=3 |  |  | >=3 | 1.6 µg/mL (≈ 4.06 µM)

≈ marks a conversion by molar mass, not a printed value.
